From patent US20090305399A1 come the findings set out here.

The experiment deals with human Kv1.3 channel (human) (UniProt P22001). Briefly: cell-based or functional assay.

Fc-L10-OSK1[K7S] (Fc fusion) had a fold change in Kv1.3 potency against Fc-L10-OSK1 of 2 fold.
